Experimental data reported in patent publication US20240262869A1.

Biological target: ACE2-hFc (human) (UniProt Q9BYF1)
Test: SPR, His-tagged candidate captured on anti-His antibody, ACE2-hFc as analyte

iInCV02R (SARS CoV-2 RBD) (from UniProt P0DTC2 332-532) (ligand; other documents disagree on this pair)
Kd: 0.9 nM
